Here are results for one compound from ChEMBL document CHEMBL3045109, “Inhibitory effect of bionic fungicide 2-allylphenol on Botrytis cinerea (Pers. ex Fr.) in vitro” (Pest Manag Sci, 2009).

Test [1] relates to Botrytis cinerea. Nature of the test: Inhibition of respiratory activity in Botryotinia fuckeliana mycelium assessed as decrease in rate of oxygen consumption at 1 mM by Clark-type oxygen electrode recording analysis in presence of glucose and 2 mM mitochondrial alternative oxidase inhibitor, SHAM (reference value: 0%).
Test [2] deals with Botrytis cinerea. As to the kind of experiment: Inhibition of respiratory activity in Botryotinia fuckeliana mycelium assessed as decrease in rate of oxygen consumption at 1 mM by Clark-type oxygen electrode recording analysis in presence of succinate (reference value: 0%).
Test [3] relates to Botrytis cinerea. Nature of the test: Inhibition of respiratory activity in Botryotinia fuckeliana mycelium assessed as decrease in rate of oxygen consumption at 1 mM by Clark-type oxygen electrode recording analysis in presence of glucose (reference value: 0%).
The test system of test [4] is Botrytis cinerea. As to the kind of experiment: Inhibition of respiratory activity in Botryotinia fuckeliana mycelium assessed as decrease in rate of oxygen consumption at 1 mM by Clark-type oxygen electrode recording analysis in presence of succinate and 2 mM mitochondrial alternative oxidase inhibitor, SHAM (reference value: 0%).

As to `[C-]#N.[K+]`, the inhibition came out at 100% in test [1], 46% in test [2], 35% in test [3] and 100% in test [4].
